According to PMC9871955, “High-throughput screening of SARS-CoV-2 main and papain-like protease inhibitors” (Protein & Cell, 2022):

Biological target: SARS-CoV-2 PL^pro (Severe acute respiratory syndrome coronavirus 2, UniProt P0DTD1)
Assay: SARS-CoV-2 PL^pro enzymatic inhibition assay (substrate Z-RLRGG-AMC)
Format: biochemical
[1] = Table S2, PL^pro inhibitors, 40 nmol/L enzyme, 50 µmol/L substrate, read-out: IC50
[2] = Table S3, representative dual inhibitors, read-out: IC50 for PL^pro
[3] = read-out: IC50 (μM) at S/KM 1/4
[4] = Table S6, S/KM = 4, read-out: IC50 (μM) at S/KM 4

SMILES	IC50 [1]	IC50 [2]	IC50 [3]	IC50 (Table S6, S/KM = 2, read-out: IC50 (μM) at S/KM 2)	IC50 [4]	IC50 (read-out: IC50 (μM) at S/KM 1)	IC50 (read-out: IC50 (μM) at S/KM 1/2)	IC50 (read-out: IC50 / inhibitory activity toward PL^pro)
O=C(COc1ccc(Cl)cc1)NCc1n[nH]c(=S)n1-c1ccc(Br)cc1 [JK0109-H005]	31.1 ± 1.26 µM	31.1 ± 1.3 µM	16.4 ± 4.1 µM					
CCC(C(=O)NCc1ccco1)n1c(Cc2c(Cl)cccc2Cl)nc2ccccc21 (stereo not drawn) [CD3226-D010]				11.1 ± 0.4 µM	12.5 ± 0.3 µM	10.8 ± 2.1 µM	8.4 ± 2 µM	
O=c1sc2ccccc2n1Cc1n[nH]c(=S)n1-c1ccccc1 [JK0946-F007]	17.01 ± 0.15 µM	17 ± 0.2 µM	24.7 ± 3.2 µM					10.8 ± 0.5 µM
COc1ccc(-n2c(CNC(=O)COc3ccc(Cl)cc3Cl)n[nH]c2=S)cc1 [JK0109-B011]					10.1 ± 1 µM			

Where two headings read alike, the source gives them in different places.
